Structures are written as SMILES. Only a part is listed here, and it is no random draw. Activity calls are given as the source filed them. No rule for the calls is given here.

The assay in a line: Vibrio cholerae motility inhibitors, OD read-out (AID 588778). The conditions noted are these: active compounds read high, concentration not given here.
Consider `COc1ccc(OCC(=O)OC2CN3CCC2CC3)cc1` (configuration not stated), for which the inhibition was inactive: 14.6%.
Consider `Cc1cccc(C(=O)OC2CN3CCC2CC3)c1` (configuration not stated), for which the inhibition is inactive: 3.42%.

As a reminder, the inhibition is how much of the control response was suppressed.

The record behind these values is PubChem BioAssay AID588778 (Southern Research Institute, 2011).
